PubChem BioAssay AID1224833, University of Georgia | 2016

- Screen: 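Human genes whose knock-down alters rotavirus replication in monkey cells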 (primary screen)
- System: monkey MA104 kidney cells
- Reagent: siRNA pool against human genes, 50 nM
- Timing: 48 h knock-down before infection; read 24 h after infection
- Challenge: infection with rotavirus strain RV3 two days after transfection; infectious dose for this stage not given
- Detection: 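z-score of rotavirus antigen signal per well, from a fluorescent immunoassay, relative to non-targeting control wells on the same plate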
- Reading the numbers: z-score vs non-targeting control: higher = more rotavirus replication than with non-targeting control
- Rule for the call: In these data the active calls have z-score vs non-targeting control at about -1 or lower, or at about 1 or higher
- Meaning of the calls: active = z-score beyond 1 either way; inactive = z-score within 1 of zero
The whole screen tested about 12,000 reagents; shown is an unselected part. In the full data, about 5,600 (46%) are marked active. 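Active calls cover z-scores past 1 in both directions, so they include lowered as well as raised rotavirus replication.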

Target gene | z-score vs non-targeting control | Outcome
TMEM134 | -0.632 | inactive
COPS2 | -1.83 | active
EXOC1 | 0.0577 | inactive
FIRRM | 0.82 | inactive
FOXK1 | 0.82 | inactive
WFIKKN2 | -2.07 | active
DMKN | -0.51 | inactive
LGALSL | -2.92 | active
RUFY2 | 1.9 | active
FAM178B | 0.55 | inactive
IFI27L2 | -2.26 | active
SYTL2 | -1.55 | active
GOLGA7B | 1.61 | active
MMP7 | 1.24 | active
FAM111A | 1.98 | active
C3orf36 | -1.27 | active
COL4A6 | -0.896 | inactive
GDE1 | 0.774 | inactive
SLC10A3 | -0.926 | inactive
POP5 | 1.87 | active
HDAC1 | -1.26 | active
ZBTB10 | -0.615 | inactive
TUBGCP4 | -0.919 | inactive
FBLIM1 | -0.682 | inactive
SESTD1 | -1.1 | active
RTP3 | -0.345 | inactive
PDZD8 | 0.692 | inactive
PYROXD2 | 0.493 | inactive
ARFIP2 | -0.797 | inactive
AACS | 4.41 | active
ARMCX2 | -0.487 | inactive
FSD1 | -0.63 | inactive
MAML3 | -2.06 | active
PCNP | 0.531 | inactive
NUTM2G | -0.935 | inactive
CTPS1 | -0.642 | inactive
CRYZ | -1.25 | active
NCF1 | 2.28 | active
CCM2 | -1.18 | active
FOXD4L1 | 1.3 | active
ZNF721 | -1.07 | active
MROH7 | 0.958 | inactive
OR4D10 | -0.647 | inactive
CORO1B | -1.39 | active
NMNAT3 | -0.597 | inactive
IFT52 | 1.75 | active
LACTB2 | 1.24 | active
L1TD1 | 1.35 | active
PPA2 | -1.34 | active
USPL1 | -1.5 | active
U2AF1 | -1.2 | active
UBXN4 | -0.849 | inactive
ZC3H6 | -1.31 | active
OPRK1 | -1.89 | active
STAM | -0.431 | inactive
GAB3 | 0.579 | inactive
SLC67A2 | -1.16 | active
MGP | -1.49 | active
SCRN2 | 0.887 | inactive
ZNF24 | -1.71 | active
OR11A1 | -1.6 | active
RPS10 | 1.8 | active
ALMS1 | -0.73 | inactive
KRTAP5-5 | 0.715 | inactive
C1QC | -0.276 | inactive
RAB11FIP2 | -0.535 | inactive
BGLAP | -0.794 | inactive
MFAP5 | -0.938 | inactive
PPHLN1 | -2.19 | active
HSFY2 | -0.874 | inactive
ARMC5 | 1.63 | active
ABCB10 | -1.23 | active
MFSD12 | -0.733 | inactive
LARGE2 | 0.638 | inactive
TEKT1 | -0.365 | inactive
